Anti-infective test results gathered from many reports (values: NIAID ChemDB through PubChem).

Shared fields: whole-cell or culture tests; species: HIV-1; measure: inhibition

Inhibition is in % at the dose shown (toxicity tests: loss of growth or viability).

| structure | strain | cells | method | conditions | dose | value |
|---|---|---|---|---|---|---|
| C[C@@H]1[C@H](O)[C@@H](C)/C=C/C=C/C=C/C=C/C=C/C=C/C=C/[C@H](O[C@@H]2O[C@H](C)[C@@H](O)[C@H](N)[C@@H]2O)CC2O[C@](O)(CC(O)C(O)CCC(O)CC(O)CC(O)CC(=O)O[C@H]1C)CC(O)C2C(=O)O.O=S(=O)(O)O | KK-1 | PHA-PBMC + PBMC | fluorescence |  | 3.9 µg/mL | 76.5% |
| Cc1cn([C@H]2C[C@H](N=[N+]=[N-])[C@@H](CO)O2)c(=O)[nH]c1=O |  | U1 | p24 |  | 0.1 µM | 45.5% |
| Cc1ccc(CNC(=O)c2ccc3nc(-c4ccccn4)n(C)c(=O)c3c2O)cc1 |  | TZM-bl | MTT |  | 10 µM | >0% |
| OC[C@H]1[C@@H](O)[C@H](O)[C@H]2[C@@H](O)CCN21 | GB8 | JM | syncytia |  | 1000 µM | 0% |
| Nc1nc2c(ncn2[C@H]2CC[C@@H](CO)O2)c(=O)[nH]1 | LAV-Bru | CEM13 + CEM | ELISA |  | 10 µM | 90% |
| Cc1cn([C@H]2C[C@H](N=[N+]=[N-])[C@@H](COC(=O)OCCCCCCOC3O[C@H](CO)[C@@H](O)[C@H](O)[C@@H]3O)O2)c(=O)[nH]c1=O |  | CEM-113 + CEM/C113 | RT activity |  | 20 µg/mL | 0% |
| COc1cc(O)c2c(=O)oc3cc(O)cc(C)c3c2c1 | NL4-3 | HeLa | luciferase | pseudotyped | 60 µM | 57% |
| CCCCCCCCCCCCCC(=O)O[C@@H]1[C@@H](C)[C@@]2(O)[C@@H](C=C(CO)C[C@]3(O)C(=O)C(C)=C[C@@H]23)[C@@H]2C(C)(C)[C@]12OC(C)=O | MN | CD4.401/H9(HIV-1 MN) + CD4 | syncytia |  | 0.005 µg/mL | 79% |
| COc1c(C(=O)NCc2ccc(C)cc2)ccc2nc(Cc3ccc(F)cc3)n(C)c(=O)c12 |  | TZM-bl | MTT |  | 10 µM | >0% |
| Nc1ccn(C/C=C/CCl)c(=O)n1 | IIIB | ATH8 | cytopathic effect / trypan blue |  | 100 µM | 0% |
| COc1cc(OC)c2c(O)c3c(c(-c4c(OC)cc5cc(O)c6c(=O)cc(C)oc6c5c4OC)c2c1)OC(C)(O)CC3=O | SF162 | TZM-bl | luciferase |  | 10 µM | 3.75% |
| O=c1[nH]cnc2c1ncn2[C@H]1CC[C@@H](CO)O1 | BZ X4 | PBL (resting) + PBL | RT activity |  | 9 µM | 98% |
| O=C1Nc2ccc(Cl)cc2[C@@](C#CC2CC2)(C(F)(F)F)O1 |  | SupT1 | luciferase | pseudotyped | 20 µM | 88.54% |
| O=C(O)c1cc(SSc2ccc([N+](=O)[O-])c(C(=O)O)c2)ccc1[N+](=O)[O-] |  | U-937 | p24 |  | 2500 µM | 88% |
| O=C(OC[C@H]1O[C@@H](OC(=O)c2cc(O)c(O)c(O)c2)[C@H](O)[C@@H](OC(=O)c2cc(O)c(O)c(O)c2)[C@@H]1O)c1cc(O)c(O)c(O)c1 | IIIB | MOLT-3 | syncytia |  | 33 µg/mL | 82% |
| COc1cc(OC)c2c(O)c3c(=O)cc(C)oc3c(-c3c(OC)cc4cc5oc(C)cc(=O)c5c(O)c4c3OC)c2c1 | SF162 | TZM-bl | luciferase |  | 10 µM | 42.72% |
| Nc1ccn([C@H]2CC[C@@H](CO)O2)c(=O)n1 | IIIB | ATH8 | cytopathic effect / trypan blue |  | 0.2 µM | 58% |
| O=C1Nc2ccc(Cl)cc2[C@@](C#CC2CC2)(C(F)(F)F)O1 |  | SupT1 | luciferase | pseudotyped | 30 µM | 99.9% |
| CC(=O)N[C@@H](CS)C(=O)O |  | U-937/HIV-1 + U-937 | MTT / p24 |  | 200 µM | 0% |
| C[n+]1cnc(N)c2[nH]cnc21 | IIIB | MOLT4 + MOLT-4 | p24 |  | 426 µM | >25% |
| CC(C)Oc1ccc(OC(C)C)c2c1-c1nc3nc(nc4[nH]c(nc5[nH]c(nc-2n1)c(SCCCC(=O)O)c5SCCCC(=O)O)c(SCCCC(=O)O)c4SCCCC(=O)O)C(SCCCC(=O)O)=C3SCCCC(=O)O | IIIB | MAGI | β-galactosidase |  | 5 µg/mL | 72% |
| Nc1ncc2[nH]cnc2n1 | IIIB | MOLT4 + MOLT-4 | p24 |  | 612 µM | >25% |
| Cc1cn([C@H]2C[C@H](N=[N+]=[N-])[C@@H](CO)O2)c(=O)[nH]c1=O | IIIB | MT-4 | RT activity |  | 0.0156 µM | 69.7% |
| c1cc(CN2CCCNCCNCCCNCC2)ccc1CN1CCCNCCNCCCNCC1 | SW29 CLADE C R5 | PBMC | p24 |  | 0.5 µM | 13% |
| COc1c(C(=O)NCc2ccc(C)cc2)ccc2nc(Cc3ccc([N+](=O)[O-])cc3)n(C)c(=O)c12 |  | TZM-bl | MTT |  | 10 µM | >0% |
| COC(=O)[C@@H]1C2CCC(C[C@@H]1OC(=O)c1ccccc1)N2C | IIIB | ACH-2 + ACH2 | p24 |  | 25 µg/mL | <0% |
| Cc1cn([C@H]2C[C@H](N=[N+]=[N-])[C@@H](CO)O2)c(=O)[nH]c1=O | BaL | Macrophages (GM-CSF) + Macrophage | p24 |  | 0.5 µM | >99% |
| Nc1nc2c(ncn2C/C=C\CO)c(=O)[nH]1 | IIIB | ATH8 | cytopathic effect / trypan blue |  | 1000 µM | 4% |
| COc1ccc2cc1Oc1ccc(cc1)C[C@H]1c3c(cc4c(c3Oc3cc5c(cc3OC)CCN(C)[C@@H]5C2)OCO4)CCN1C |  | U1/HIV-1 (+PMA 10 ng/mL) + U1 | p24 | chronic infection | 0.04 µg/mL | 73.8% |
| Nc1ncnc2c1ncn2[C@H]1CC[C@@H](CO)O1 | LAV-Bru | CEM13 + CEM | ELISA |  | 10 µM | 90% |
| O[C@H]1[C@H](O)[C@@H](O)CN2CC[C@H](O)[C@H]12 | GB8 | JM | syncytia |  | 250 µM | 98.9% |
| Cn1c(=O)n(-c2ccc(C(C)(C)C#N)cc2)c2c3cc(-c4cnc5ccccc5c4)ccc3ncc21 |  | Macrophage | p24 / ELISA |  | 0.025 µM | 83% |
| OC[C@@H]1CC[C@H](n2cnc3c(Cl)ncnc32)O1 | IIIB | ATH9 + ATH8 | cytopathic effect / trypan blue |  | 20 µM | 100% |
| O=c1oc2ccccc2c2c1C(c1cccnc1)c1c(c3ccccc3oc1=O)O2 | 93IN101 | SupT1 | p24 / ELISA |  | 100 µM | 20% |
| Nc1ncnc2c1ncn2CC#CCCl | IIIB | ATH8 | cytopathic effect / trypan blue |  | 100 µM | 0% |
| C/C(=C(/CCOC(=O)C(C)C)SS/C(CCOC(=O)C(C)C)=C(\C)N(C=O)Cc1cnc(C)nc1N)N(C=O)Cc1cnc(C)nc1N | IIIB | MOLT-4/HIV-1(IIIB) + MOLT-4 | p24 |  | 50 µM | 0% |
| Cc1cn([C@H]2C[C@H](N=[N+]=[N-])[C@@H](CO)O2)c(=O)[nH]c1=O | RFII | CEM + CEM-SS |  |  | 0.001 ng/mL | 16% |
| Nc1ncnc2c1ncn2[C@@H]1O[C@H](CO)[C@@H](O)[C@H]1O | IIIB | MOLT4 + MOLT-4 | p24 |  | 1531 µM | >25% |
| COc1cc(C[C@@]2(O)C(=O)OC[C@@H]2Cc2ccc(OC)c(OC)c2)ccc1O | IIIB | PBL | p24 |  | 0.3 µg/mL | 66% |
| Cc1cn(CC(=O)CCO)c(=O)[nH]c1=O | IIIB | ATH8 | cytopathic effect / trypan blue |  | 10 µM | 22% |
| O[C@H]1[C@H](O)[C@H](O)CN2CC[C@H](O)[C@H]12 | GB8 | JM | syncytia |  | 1000 µM | 44% |
| O=C(Nc1cc(S(=O)(=O)O)cc2cc(S(=O)(=O)O)c(N=Nc3ccc(N=Nc4c(S(=O)(=O)O)cc5cc(S(=O)(=O)O)cc(NC(=O)c6cccc(Cl)c6Cl)c5c4O)cc3)c(O)c12)c1ccc(Cl)cc1Cl | SF162 | MONO/MACRO + Monocytes/macrophages |  |  | 1.26 µg/mL | 90% |
| COc1ccccc1-c1noc(=O)n1-c1cccc(C(F)(F)F)c1 | NLHXADA R5 recombinant wild type | MDM | p24 |  | 1 µM | 90% |
| Nc1ncnc2c1ncn2C/C=C\CO | IIIB | ATH8 | cytopathic effect / trypan blue |  | 500 µM | 0% |
| COc1ccc(CN[C@@H](C(=O)N[C@H]2c3ccccc3C[C@H]2O)[C@H](O)[C@H](Cc2ccccc2)NC(=O)[C@@H](NC(=O)OCc2ccccc2)C(C)(C)C)cc1 | IIIB | HuT-78 + HUT 78 | p24 |  | 0.23 µM | 90% |
| COc1ccc(C(=O)N2CCN(c3ccc4c(c3)CCC(=O)N4)CC2)cc1OC | JR-FL | Macrophage |  |  | 100 µg/mL | 80% |
| Cc1cn([C@H]2C[C@H](N=[N+]=[N-])[C@@H](CO)O2)c(=O)[nH]c1=O | BRU | HT4 + HT4-6C | plaque count |  | 0.71 µM | 90% |
| CN[C@@H]1C[C@H]2O[C@@](C)([C@@H]1OC)n1c3ccccc3c3c4c(c5c6ccccc6n2c5c31)C(=O)N[C@@H]4O |  | MOLT-4/HIV-1 + MOLT-4 | p24 / ELISA |  | 0.08 µM | 20% |
| Nc1nc(F)c2ncn([C@H]3CC[C@@H](CO)O3)c2n1 | BaL | MM + M/M | cytopathic effect / trypan blue |  | 2 µM | 100% |
| CCCCCCCCCCCCCC(=O)OC[C@H](COP(=O)(O)OC[C@@H]1CC[C@H](n2cnc3c(=O)[nH]c(N)nc32)O1)OC(=O)CCCCCCCCCCCCC | LAV-Bru | CEM13 + CEM | ELISA |  | 10 µM | 99% |
| Cc1cn([C@H]2C[C@H](N=[N+]=[N-])[C@@H](CO)O2)c(=O)[nH]c1=O | BZ X4 | PBL (resting) + PBL | RT activity |  | 4 µM | 47% |

3 of the rows above, restated:

structure | strain | cells | method | conditions | dose | value
O=C1Nc2ccc(Cl)cc2[C@@](C#CC2CC2)(C(F)(F)F)O1 |  | SupT1 | luciferase | pseudotyped | 20 µM | 88.54%
Nc1ncc2[nH]cnc2n1 | IIIB | MOLT4 + MOLT-4 | p24 |  | 612 µM | >25%
COc1cc(O)c2c(=O)oc3cc(O)cc(C)c3c2c1 | NL4-3 | HeLa | luciferase | pseudotyped | 60 µM | 57%

Blank or dashed fields: not listed here. Lines come from different laboratories, so protocols vary.